This is an account of results in patent publication US9499509B2, “Dihydrochalcone derivatives and their use as antibiotic agents” (UNIVERSITÉ DU QUÉBEC À CHICOUTIMI, priority 2012, dated 2016).

Each structure is given as a SMILES string.

One series deals with WS-1 cell lines. Briefly: Cytotoxicity assay on WS-1 (Example 1). The settings on record: ratio of toxicity on WS-1 to toxicity on S. aureus WT ATCC 25923. On the procedure:
Cytotoxicity assay. The cytotoxicity assay was performed in 96-well plates (BD Falcon). The WS-1 cell lines were provided by ATCC. The WS-1 was cultured in DMEM+10% fetal calf serum. The cells were plated in a volume of 100 μL at a density of 5000 cells per well and incubated at 37° C.+5% CO2 for 24 h to promote cell adhesion.
The plates were incubated at 37° C.+5% CO2 for 48 h. The cells were then washed with 100 μL of HBSS and 150 μL of a 2% resazurin were added to the wells.
The therapeutic index is the ratio between the toxicity on normal cells, in this case fibroblast, and the toxicity on bacteria.
As to `COc1ccc(CCC(=O)c2c(O)cc(O)c(C/C=C/c3ccc(O)cc3)c2O)cc1` [Compound II], the Therapeutic index worked out at 10.

In the case of `O=C(CCc1ccccc1)c1c(O)cc(O)c(C/C=C/c2ccc(O)cc2)c1O` [Compound III], the Therapeutic index is listed as 9.

The next series has as its system WS-1 cell lines. Briefly: Cytotoxicity assay on WS-1 (Example 2). Type of series: cell-based. Particulars: ratio of toxicity on WS-1 to toxicity on S. aureus WT ATCC 25923. On the procedure: Cytotoxicity assay. […] The WS-1 cell lines were provided by ATCC. […] The compounds tested were then added at 8 different concentrations. […] In Table 7, the therapeutic indexes of compounds IV to XXI are presented.
With `COc1ccc(CCC(=O)c2c(O)cc(O)c3c2OC(c2ccc(O)cc2)C(O)C3)cc1` (racemic) [XIX], the Therapeutic index turned out to be 3. With `O=C(CCc1ccccc1)c1c(O)cc2c(c1O)CC(O)C(c1ccc(O)cc1)O2` (centres unmarked) [XV], the Therapeutic index is reported as 3.

On to `O=C(CCc1ccccc1)c1c(O)cc(O)c2c1OC(c1ccc(O)cc1)C(O)C2` (racemic) [XVI], for which the Therapeutic index turned out to be 8. As for `COc1cc(O)c(C(=O)CCc2ccc(O)cc2)c2c1CCC(c1ccc(O)cc1)O2` (racemic) [X], the Therapeutic index is reported as 3. With `O=C(CCc1ccccc1)c1c(O)cc2c(c1O)CC(O)C(c1ccc(O)cc1)O2` (racemic) [XIII], the Therapeutic index is recorded as 3.

For `O=C(CCc1ccccc1)c1c(O)cc(O)c2c1OC(c1ccc(O)cc1)CC2` (racemic) [IV], the Therapeutic index came to 12.

As to `O=C(CCc1ccccc1)c1c(O)cc(O)c2c1O[C@@H](c1ccc(O)cc1)CC2` [VI], the Therapeutic index came out at 18. In the case of `O=C(CCc1ccccc1)c1c(O)cc(O)c2c1OC(c1ccc(O)cc1)C(O)C2` (centres unmarked) [XVII], the Therapeutic index is recorded as 3. Take `COc1ccc(CCC(=O)c2c(O)cc(O)c3c2O[C@H](c2ccc(O)cc2)CC3)cc1` [VIII]: the Therapeutic index is listed as 1. The same measure, in the same setting: for `O=C(CCc1ccccc1)c1c(O)cc(O)c2c1OC(c1ccc(O)cc1)C(O)C2` (centres unmarked) [XVIII] the value was 5. For `COc1ccc(CCC(=O)c2c(O)cc(O)c3c2OC(c2ccc(O)cc2)C(O)C3)cc1` (centres unmarked) [XX], the Therapeutic index turned out to be 3. As for `COc1ccc(CCC(=O)c2c(O)cc(O)c3c2O[C@@H](c2ccc(O)cc2)CC3)cc1` [IX], the Therapeutic index is 6. With `COc1cc(O)c(C(=O)CCc2ccc(O)cc2)c2c1CC[C@@H](c1ccc(O)cc1)O2` [XI], the Therapeutic index was determined as 128. In the case of `O=C(CCc1ccccc1)c1c(O)cc2c(c1O)CC(O)C(c1ccc(O)cc1)O2` (centres unmarked) [XIV], the Therapeutic index turned out to be 4. Regarding `O=C(CCc1ccccc1)c1c(O)cc(O)c2c1O[C@H](c1ccc(O)cc1)CC2` [V], the Therapeutic index was found to be 20.

As for `COc1ccc(CCC(=O)c2c(O)cc(O)c3c2OC(c2ccc(O)cc2)C(O)C3)cc1` (centres unmarked) [XXI], the Therapeutic index came out at 1. The same measure, in the same setting: the value for `COc1ccc(CCC(=O)c2c(O)cc(O)c3c2OC(c2ccc(O)cc2)CC3)cc1` (racemic) [VII] was 11; that for `COc1cc(O)c(C(=O)CCc2ccc(O)cc2)c2c1CC[C@H](c1ccc(O)cc1)O2` [XII] was 86.
